Anti-infective test results gathered from many reports (values: NIAID ChemDB through PubChem).

Shared fields: tests in culture; agent: HIV-2; read-out: EC50

Neighbouring rows are from separate reports. ECn is the concentration giving n% inhibition of infection, replication or growth. An empty or dashed field is not shown.

smiles | read by | cell line | strain | value
Cc1cccc(C)c1N1C(=O)c2ccc(N)cc2C1=O | syncytia | CEM | ROD | >30 µM
CSc1nc(N)cc(=O)n1CCOCP(=O)(O)O |  | CEM + CEM-SS | ROD | >100 µg/mL
CNOC(=O)Cn1c(=O)c(C)cn([C@@H]2O[C@H](CO[Si](C)(C)C(C)(C)C)[C@@H](O[Si](C)(C)C(C)(C)C)[C@H]2O)c1=O | syncytia | CEM | ROD | >10 µM
Cc1cc(C#N)cc(C)c1Oc1nc(Nc2ccc(NS(=O)(=O)c3ccc(C#N)cc3)cc2)nc2ccsc12 | MTT | MT-4 | ROD | >46.73 µM
Cc1cn([C@@H]2O[C@H](COC(=O)C(C)(C)C)[C@@H](O)[C@H]2OC(=O)C(C)(C)C)c(=O)n(CC(=O)O)c1=O | syncytia | CEM | ROD | >250 µM
Cc1cn([C@H]2C[C@H](N=[N+]=[N-])[C@@H](CO)O2)c(=O)[nH]c1=O | MTT | MT-4 | ROD | 0.00094 µM
COCCOCCOCCOC(=O)C1(C(=O)OCCOCCOCCOC)C2c3cc4c5c6c3-c3c(cc7c8c3C63CN(CCOCCOCCN)CC36c3c-5c(cc5ccc9cc(c-8c6c9c35)C7)C4)C21 | cytopathic effect | CEM | ROD | >4 µM
Cc1c(N)nc(N)nc1OCCOCP(=O)(O)O | syncytia | CEM | ROD | 1.9 µM
Cc1cn([C@@H]2O[C@H](CO[Si](C)(C)C(C)(C)C)[C@@H](O)[C@H]2O[Si](C)(C)C(C)(C)C)c(=O)n(CCC(=O)O)c1=O | cytopathic effect / trypan blue | MT-4 | ROD | >10 µM
Nc1ncnc2c1ncn2CCCC(O)CF | cytopathic effect | CEM | ROD | >100 µg/mL
CC(C)[C@@H]1CC[C@@H](C)C/C1=N\NC(N)=S |  | MT-4 | ROD | >12.7 µg/mL
C=C1CN(S(=O)(=O)c2ccc(C)cc2)CCCN(Cc2ccccc2)CCCN(S(=O)(=O)c2ccc(C)cc2)C1 | cytopathic effect | MT-4 | ROD | 0.2 µM
COc1ccc(C2ON=C3c4cc(OC)c(OC)cc4CC32)cc1OC | MTT | MT-4 | ROD | >11.81 µM
Cc1cc(C#N)cc(C)c1Oc1nc(NC2CCN(S(=O)(=O)c3ccccc3)CC2)nc2ccsc12 | MTT | MT-4 | ROD | >6.185 µM
OC[C@H]1O[C@@H](c2cc(Cl)c(F)cc2F)C[C@@H]1O | syncytia | CEM | ROD | >250 µM
Cc1[nH]c(=S)n(Nc2cccc(F)c2)c1-c1ccccc1 | cytopathic effect / MTT | MT-4 | ROD | >108 µM
Cc1cccc(C)c1N1C(=O)c2ccc(O)cc2C1=O | syncytia | CEM | ROD | >30 µM
COc1ccc(Nc2nnc(C(C)NS(=O)(=O)c3ccc(C)cc3)s2)cc1 | MTT | MT-4 | ROD | >41 µM
CC1(Cc2ccccc2)OS(=O)(=O)C(c2ccccc2)=C1N | cytopathic effect / MTT | MT-4 | ROD | >125 µg/mL
Clc1cccc(Nn2cnc3c2CCCC3)c1 | cytopathic effect / MTT | MT-4 | ROD | >67.29 µM
Cc1cc(C#N)cc(C)c1Oc1nc(NC2CCN(S(=O)(=O)c3ccc(N)cc3)CC2)nc2ccsc12 | MTT | MT-4 | ROD | 110.5 µM
COc1cc2c(cc1OC)C1=NOC(c3ccccc3)C1C2 | MTT | MT-4 | ROD | >10.76 µM
CC(C)(C)[Si](C)(C)OC[C@H]1O[C@@H](n2cnc3c(=O)n(CC(=O)O)cnc32)[C@H](O)[C@@H]1O[Si](C)(C)C(C)(C)C | syncytia | CEM | ROD | 9.2 µM
Nc1nc(Cl)cc(OC[C@@H]2O[C@H](COCc3ccccc3)[C@@H](OCc3ccccc3)[C@H]2OCc2ccccc2)n1 | syncytia | CEM | ROD | >10 µM
CC1CCC(C(C)C)/C(=N/NC(=O)Nc2cccc(Cl)c2)C1 |  | MT-4 | ROD | >125 µg/mL
Nc1cc(OC[C@H]2CC[C@@H](COCc3ccccc3)O2)ncn1 | syncytia | CEM | ROD | >50 µM
COc1ccc(-c2ccc(N=Nc3c(N)nc(=O)n(C)c3N3CCCCC3)cc2)cc1OC | MTT | MT-4 | ROD | >18.15 µM
Cc1cc(C#N)cc(C)c1Oc1nc(Nc2ccc(NS(=O)(=O)c3ccc([N+](=O)[O-])cc3)cc2)nc2ccsc12 | MTT | MT-4 | ROD | >91.4 µM
COc1cc2c(cc1OC)C1=NOC(c3cc(OC)c(OC)c(OC)c3)C1C2 | MTT | MT-4 | ROD | >66.2 µM
Cc1ncn(Nc2cccc(Cl)c2)c1-c1cccc(C#N)c1 | cytopathic effect / MTT | MT-4 | ROD | >36.79 µM
CO[C@@H]1[C@H](O)[C@@H](CO)O[C@H]1c1ccccc1 | cytopathic effect | CEM | ROD | >100 µg/mL
CC1(C)C(N)=C(c2ccccc2)S(=O)(=O)N1Cc1ccccc1 | cytopathic effect / MTT | MT-4 | ROD | >125 µg/mL
CC1CCC(C(C)C)/C(=N/NC(=S)Nc2ccc(Cl)cc2)C1 |  | MT-4 | ROD | >2.4 µg/mL
COc1ccc(Nc2nnc(C(NS(=O)(=O)c3ccc(C)cc3)C(C)C)s2)cc1 | MTT | MT-4 | ROD | >16.99 µM
COc1cc(C)cc2c(-c3c(O)cc(O)c4c3C[C@H](C)N[C@H]4C)cc(-c3cc(-c4c(O)cc(O)c5c4C[C@H](C)N[C@H]5C)c4cc(C)cc(OC)c4c3O)c(O)c12 | cytopathic effect / XTT | CEM + CEM-SS | NIH-DZ | 25 µM
CC(C)(C)[Si](C)(C)OCC1O[C@@H](NC(=O)NC(=O)c2ccccc2)C(O[Si](C)(C)C(C)(C)C)C12OS(=O)(=O)C=C2N | syncytia | CEM | ROD | >10 µM
Cc1cccc(Nn2c(-c3ccccc3)c(C(C)C)[nH]c2=S)c1 | cytopathic effect / MTT | MT-4 | ROD | >42.63 µM
Nc1ccn(C(CF)CCCO)c(=O)n1 | cytopathic effect | CEM | ROD | >100 µg/mL
COc1cc2c(cc1OC)C1=NOC(c3ccc(N(C)C)cc3)C1C2 | MTT | MT-4 | ROD | 7 µM
CC1(Cc2ccccc2)OS(=O)(=O)C=C1N | cytopathic effect / MTT | MT-4 | ROD | >125 µg/mL
CC[Si]1(C(C)C)O[C@H]2[C@@H](O)[C@H](c3ccccc3)O[C@@H]2CO[Si](C(C)C)(C(C)C)O1 | cytopathic effect | CEM | ROD | >4 µg/mL
Nc1ccc2c(c1)C(=O)N(C13CC4CC(CC(C4)C1)C3)C2=O | syncytia | CEM | ROD | 27 µM
CC(=O)Nc1ccc(S(=O)(=O)Nc2ccc(Nc3nc(Oc4c(C)cc(C#N)cc4C)c4sccc4n3)cc2)cc1 | MTT | MT-4 | ROD | >12.7 µM
COc1cc2c(cc1OC)C1=NOC(c3ccc(F)cc3)C1C2 | MTT | MT-4 | ROD | 63.55 µM
Cc1cc(C#N)cc(C)c1Oc1nc(NC2CCN(S(=O)(=O)c3ccc(C#N)cc3)CC2)nc2ccsc12 | MTT | MT-4 | ROD | >20.98 µM
[N-]=[N+]=N[C@H]1C[C@H](n2cc(Cl)c(=O)[nH]c2=O)O[C@@H]1CO | cytopathic effect | MT-4 | LAV-2 | 0.45 µM
CCn1cc(C(=O)O)c(=O)c2cc(F)c(N3CCN(c4ccccc4OC)CC3)c(OC(F)F)c21 | cytopathic effect / MTT | MT-4 | EHO | 0.5 µM
CCCCC(=O)Oc1ccc(COP(=O)(OCc2ccc(OC(=O)c3ccc(C(F)(F)F)cc3)cc2)OP(=O)(O)OCC2C=C[C@H](n3cc(C)c(=O)[nH]c3=O)O2)cc1 | syncytia | CEM | ROD | 1.05 µM
Cc1cn([C@H]2C=C[C@@H](CO)O2)c(=O)[nH]c1=O | cytopathic effect / MTT | MT-4 | ROD | 0.77 µM
O=C1c2ccccc2C(=O)N1C12CC3CC(CC(C3)C1)C2 | syncytia | CEM | ROD | >704 µM
COc1ccc(Nc2nnc(C(Cc3ccccc3)NS(=O)(=O)c3ccc(C)cc3)s2)cc1 | MTT | MT-4 | ROD | >63.55 µM
COc1cc(OC[C@H]2CC[C@@H](CO)O2)ncn1 | syncytia | CEM | ROD | >50 µM
Cc1[nH]c(=S)n(Nc2cccc(Br)c2)c1-c1ccccc1 | cytopathic effect / MTT | MT-4 | ROD | >44.24 µM
COC(=O)CCCCn1c(=O)c(C)cn([C@@H]2O[C@H](CO[Si](C)(C)C(C)(C)C)[C@@H](O)[C@H]2O[Si](C)(C)C(C)(C)C)c1=O | syncytia | CEM | ROD | >10 µM
Cc1ccc(S(=O)(=O)NC(Cc2ccccc2)c2nnc(Nc3ccc(F)cc3)s2)cc1 | MTT | MT-4 | ROD | >2.06 µM
Cc1ncn(Nc2cccc(Cl)c2)c1C | cytopathic effect / MTT | MT-4 | ROD | >214 µM
Cc1ccc(S(=O)(=O)NC(c2nnc(Nc3ccc(Br)cc3)s2)C(C)C)cc1 | MTT | MT-4 | ROD | >6.49 µM
CC(=O)Oc1ccc(COP(=O)(OCc2ccc(OC(=O)c3ccc(C)cc3)cc2)OP(=O)(O)OCC2C=C[C@H](n3cc(C)c(=O)[nH]c3=O)O2)cc1 | syncytia | CEM/TK- | ROD | 6.31 µM
Nc1nccc(OC[C@H]2CC[C@@H](CO)O2)n1 | syncytia | CEM | ROD | >250 µM
Cc1cc(C#N)cc(C)c1Oc1nc(NC2CCN(S(=O)(=O)c3ccc4ccccc4c3)CC2)nc2ccsc12 | MTT | MT-4 | ROD | >219.4 µM
CCN(CC)c1c(N=Nc2ccc(Cl)cc2)c(N)nc(=O)n1C | MTT | MT-4 | ROD | >100 µM
Cc1cn([C@@H]2O[C@H](CO[Si](C)(C)C(C)(C)C)[C@@H](O)[C@H]2O[Si](C)(C)C(C)(C)C)c(=O)n(CCCCC(=O)O)c1=O | cytopathic effect / trypan blue | MT-4 | ROD | ≥10 µM
Cn1c(N(Cc2ccccc2)Cc2ccccc2)c(N=Nc2ccc(Cl)cc2)c(N)nc1=O | MTT | MT-4 | ROD | >78.59 µM
Nc1ncnc2c1ncn2[C@H]1C=C[C@@H](CO)O1 | cytopathic effect / trypan blue | MT-4 | ROD | 72 µM
COC(=O)Cn1c(=O)c(C)cn([C@@H]2O[C@H](CO[Si](C)(C)C(C)(C)C)[C@@H](O)[C@H]2O[Si](C)(C)C(C)(C)C)c1=O | syncytia | CEM | ROD | >10 µM
CC(C)CN(C[C@@H](O)[C@H](Cc1cc(F)cc(F)c1)NC(=O)O[C@H]1CO[C@H]2OC[C@H](NC(C)C)[C@H]21)S(=O)(=O)c1ccc2nc(NC3CC3)sc2c1 | MTT / p24 | MT-4 | EHO | 0.0000045 µM
Cc1cn([C@H]2C=C[C@@H](CO)O2)c(=O)[nH]c1=O | MTT | MT-4 | ROD | 0.024 µM
Cc1ccc2c(c1)C(=O)N(C13CC4CC(CC(C4)C1)C3)C2=O | syncytia | CEM | ROD | >336 µM
CCCCC(=O)Oc1ccc(COP(=O)(OCc2ccc(OC(=O)c3ccc(C)cc3)cc2)OP(=O)(O)OCC2C=C[C@H](n3cc(C)c(=O)[nH]c3=O)O2)cc1 | syncytia | CEM/TK- | ROD | 6.31 µM
CCCNc1c(N=Nc2ccc(-c3ccc(OC)c(OC)c3)cc2)c(N)nc(=O)n1C | MTT | MT-4 | ROD | >36.76 µM
Cc1cccc(C)c1N1C(=O)c2ccc(Cl)cc2C1=O | syncytia | CEM | ROD | >138 µM
COc1cc2c(cc1OC)C1=NOC(c3ccco3)C1C2 | MTT | MT-4 | ROD | >10.97 µM
CC1(C)C(N)=CS(=O)(=O)N1Cc1ccc(Cl)cc1 | cytopathic effect / MTT | MT-4 | ROD | >75 µg/mL
Cc1cn([C@H]2C[C@H](N=[N+]=[N-])[C@@H](CO)O2)c(=O)[nH]c1=O | syncytia | C8166 | CBL-20 | 0.00662 µM
O=c1[nH]c(=O)n([C@H]2C[C@H](F)[C@@H](CO)O2)cc1Cl | cytopathic effect | MT-4 | LAV-2 | 0.69 µM
COc1ccc(CNC2=CS(=O)(=O)OC2(C)C)c(OC)c1 | cytopathic effect / MTT | MT-4 | ROD | >125 µg/mL
Cc1cn([C@@H]2O[C@H](CO[Si](C)(C)C(C)(C)C)[C@@H](O)[C@H]2O[Si](C)(C)C(C)(C)C)c(=O)n(Cc2nn[nH]n2)c1=O | syncytia | CEM | ROD | >10 µM

Repeating the final 6 entries:

COc1cc2c(cc1OC)C1=NOC(c3ccco3)C1C2 ; read by: MTT ; cell line: MT-4 ; strain: ROD ; value: >10.97 µM
CC1(C)C(N)=CS(=O)(=O)N1Cc1ccc(Cl)cc1 ; read by: cytopathic effect / MTT ; cell line: MT-4 ; strain: ROD ; value: >75 µg/mL
Cc1cn([C@H]2C[C@H](N=[N+]=[N-])[C@@H](CO)O2)c(=O)[nH]c1=O ; read by: syncytia ; cell line: C8166 ; strain: CBL-20 ; value: 0.00662 µM
O=c1[nH]c(=O)n([C@H]2C[C@H](F)[C@@H](CO)O2)cc1Cl ; read by: cytopathic effect ; cell line: MT-4 ; strain: LAV-2 ; value: 0.69 µM
COc1ccc(CNC2=CS(=O)(=O)OC2(C)C)c(OC)c1 ; read by: cytopathic effect / MTT ; cell line: MT-4 ; strain: ROD ; value: >125 µg/mL
Cc1cn([C@@H]2O[C@H](CO[Si](C)(C)C(C)(C)C)[C@@H](O)[C@H]2O[Si](C)(C)C(C)(C)C)c(=O)n(Cc2nn[nH]n2)c1=O ; read by: syncytia ; cell line: CEM ; strain: ROD ; value: >10 µM